PMC12584642

Biological target: ArcA-P (phosphorylated ArcA) (Klebsiella pneumoniae W14) (UniProt A6TI15)
Assay: EMSA
Settings: ArcA phosphorylated with acetyl phosphate, poly IC competitor; 10 mM Tris-HCl pH 8.0, 1 mM EDTA, 1 mM DTT, 50 mM KCl, 1.5 mg/mL poly IC, 50 ug/mL BSA, 10% glycerol; recombinant protein; protein details: His6 (pET28a); label: none (ethidium bromide stain); probe letters rebuilt from the primers and the genome

Question: Does “AGGATGATCACCAGCATGCCCAACATGATGACCATCTTTAATCCGTTAAGTGTAATAATGGGTTTAGCCATAGGATCCCGACCTCAAACTTCCTTGCCTATTAACAGGTTGCGTTACATTAGCATAATGACGCTTTTTTGCAGAACAAACGCATTGAAGAAAAACCGCGGCGTAAAGAATTGCAAAGTCTTTGAATTAAATGTAGCACTATGCTACAAATCTACCTGTGTTTAACTACTGAGGACAATTTTCATCCGCACCGGACGAGAAGCAACACCGCGGATAATTGTAATTTTATGGACAATCAGTTCAGGATGTATATTTTAAATCACCCCGCAGTATCCCTCACTTTTTCCCGTTTTGCCGGCGAACAGCACTGGCATTCGGCGCTATAGTCACCTTCTTTCTGCCTGAGCTGGCGCCAAGCGCACAGCGATATCTACGTCAGAAATTTTCCTGTTTACGTCTCGCGTAAACGGTAATGGATTATATTCTCAAGCAGGAGAAGGGATCATGTTTTATTGGATTTTATTAGCTTTAGCAATTATTGCTGAAATTACCGGCACCTTGTCTA (double strand) [kpnEF promoter region fragment, 574 bp]” bind?
Answer: binds

Construct, isoform or probe ends are uncertain for at least one entry.
